Compound potency records, mixed from different reports. Data source: NIAID ChemDB in PubChem.

Shared fields: enzyme or target tests

Fold resistance has wild type as its base. An empty or dashed field is not shown. Rows are shuffled and stem from different studies. ICn is the concentration giving n% inhibition. Percent inhibition refers to the dose given; in toxicity tests it is the harm to the cells. Two numbers with a dash give a range or band.

compound | agent | mutations | protein | method | measure | tested at | result
C=Cc1c(C)c2cc3[nH]c(cc4nc(cc5nc(cc1[nH]2)C(C)=C5CCC(=O)OC)C(CCC(=O)OC)=C4C)c(C)c3C=C | HIV-1 |  | gp120 |  | inhibition | 60 µg/mL | 0%
O=CC(O)C(OC(=O)c1cc(O)c(O)c(O)c1)C1OC(=O)c2cc(O)c(O)c(O)c2-c2c(cc(O)c(O)c2O)C(=O)OCC1O | HIV-1 |  | gp120 | binding | inhibition | 0.78 µg/mL | 1.9%
CC(C)(C)OC(=O)N[C@@H](Cc1ccccc1)C(=O)N[C@@H](CO)C(=O)N[C@@H](Cc1ccccc1)[C@H](O)C(=O)NCC1CCCCC1 | HIV-1 |  | Protease |  | inhibition | 1000 µM | 53%
O=C(O)CCN1C(=O)/C(=C\c2ccc(-c3cccc([N+](=O)[O-])c3)o2)SC1=S | HIV-1 |  | Rev:RRE | scintillation proximity / radiometric | IC50 |  | 2.9 µM
CC(C)[C@H](NC(=O)[C@@H]1CCCN1C(=O)[C@@H](O)[C@H](Cc1ccccc1)NC(=O)[C@H](CC(N)=O)NC(=O)CCc1ccccc1)C(N)=O | HIV-1 |  | Protease |  | inhibition | 5 µM | 60.9%
CCN1c2ncc(CCOc3ccc(C(=O)O)c4c3CCN(C(C)=O)C4)cc2C(=O)N(C)c2cccnc21 | HIV-1 | RT-K103N Y181C | Reverse transcriptase | nucleotide incorporation / radiometric | fold resistance |  | 1–10
C1=Cc2nc1c(-c1ccncc1)c1ccc([nH]1)c(-c1ccncc1)c1nc(c(-c3ccncc3)c3ccc([nH]3)c2-c2ccncc2)C=C1 | HIV-1 |  | gp120 |  | inhibition | 60 µg/mL | 66.4%
CS(=O)(=O)C[C@H](NC(=O)COc1cccc2ccccc12)C(=O)N[C@@H](Cc1ccccc1)[C@H](O)C(=O)N1CSC[C@H]1C(=O)NC1CCC(O)CC1 | HIV-1 |  | Protease |  | IC50 |  | <5 µM
CCN1c2ncc(CCOc3ccc4cc(C(=O)NC(C)(C)C(=O)O)ccc4c3)cc2C(=O)N(C)c2cccnc21 | HIV-1 | RT-K103N Y181C | Reverse transcriptase | nucleotide incorporation / radiometric | IC50 |  | 0.1–1 µM
CC(=O)Nc1ccc(C(=O)Nc2ccc(-c3nc4ccc(NC(=O)c5ccc(NC(C)=O)cc5)cc4[nH]3)cc2)cc1 | HIV-1 |  | Rev:RRE | scintillation proximity / radiometric | IC50 |  | 0.3 µM
C=CC1=C(C)C2=NC1=CC1=NC(=CC3=C(C)C(=C([O-])[O-])C(=N3)C(CC(=O)O)=C3NC(=C2)C(C)C3CCC(=O)O)C(CC)=C1C.[Mg+2] | HIV-1 |  | gp120 |  | inhibition | 60 µg/mL | 73.7%
CCN1c2ncc(CCOc3ccc(CC(C)C(=O)O)c4ccccc34)cc2C(=O)N(C)c2ccc(C)nc21 | HIV-1 | RT-K103N Y181C | Reverse transcriptase | nucleotide incorporation / radiometric | IC50 |  | 0.1–1 µM
CC(C)(C)NC(=O)[C@@H]1CSCN1C(=O)[C@@H](O)[C@H](Cc1ccccc1)NC(=O)[C@H](CS(C)(=O)=O)NC(=O)COc1cccc(C(=O)N2CCOCC2)c1 | HIV-1 |  | Protease |  | inhibition | 0.05 µM | 55.5%
CCOC(=O)C(=O)CC(=O)/C=C/c1cc(-c2ccccc2)cn1Cc1ccc(F)cc1 | HIV-1 | Q475A | RNase H | substrate cleavage / fluorescence | IC50 |  | >100 µM
CC[C@@H](C)[C@H](NC(=O)[C@@H]1CCCN1C(=O)[C@@H](O)[C@H](CC1CCCCC1)NC(=O)[C@H](COC)NC(=O)CCc1ccccc1)C(=O)N[C@H](C(N)=O)C(C)C | HIV-1 |  | Protease |  | inhibition | 5 µM | 89.4%
CCN1c2ncc(CCOc3ccc(C(C)C(=O)O)c4ccccc34)cc2C(=O)N(C)c2cccnc21 | HIV-1 | RT-V106A | Reverse transcriptase | nucleotide incorporation / radiometric | IC50 |  | >1 µM
CC(=O)Nc1ccccc1C(=O)Nc1ccc(-c2nc3ccc(NC(=O)c4ccccc4NC(C)=O)cc3[nH]2)cc1 | HIV-1 |  | Rev:RRE | scintillation proximity / radiometric | IC50 |  | >90 µM
CC(C)Cc1cc(-c2ccc(-c3ccc(CCC(=O)O)cc3CC(C)C)cc2C(C)C)ccc1OCC(=O)O | HIV-1 |  | gp41 | ELISA | IC50 |  | 13.18 µg/mL
Nc1ccc2cc(S(=O)(=O)[O-])cc(O)c2c1N=Nc1ccc(NC(=O)Nc2ccc(N=Nc3c(N)ccc4cc(S(=O)(=O)[O-])cc(O)c34)c(S(=O)(=O)[O-])c2)cc1S(=O)(=O)[O-] | HIV-1 |  | Rev:RRE | scintillation proximity / radiometric | IC50 |  | 1 µM
O=C(/C=C/c1cccn1Cc1ccccc1Cl)CC(=O)C(=O)O | HIV-1 | N474A | RNase H | substrate cleavage / fluorescence | IC50 |  | >100 µM
Nc1ccn([C@@H]2CS[C@H](COP(=O)(O)OP(=O)(O)OP(=O)(O)O)O2)c(=O)n1 | HIV | RT-M184V | Reverse transcriptase | radiometric | fold resistance |  | 296
O=C(OC[C@H]1O[C@@H](O)[C@@H]2OC(=O)c3cc(O)c(O)c(O)c3-c3c(cc(O)c(O)c3O)C(=O)O[C@H]2[C@@H]1OC(=O)c1cc(O)c(O)c(O)c1Oc1cc2c(c(O)c1O)-c1c(cc(O)c(O)c1O)C(=O)O[C@@H]1[C@@H](OC2=O)[C@H](OC(=O)c2cc(O)c(O)c(O)c2)O[C@@H]2COC(=O)c3cc(O)c(O)c(O)c3-c3c(cc(O)c(O)c3O)C(=O)O[C@@H]12)c1cc(O)c(OC(=O)c2cc(O)c(O)c(O)c2)c(O)c1 | HIV-1 |  | Capsid | antigen | IC50 |  | 1.8 µg/mL
C=Cc1c(C)c2cc3nc(cc4[nH]c(cc5nc(cc1[nH]2)C(C)=C5CO)c(C)c4CCC(=O)O)C(CCC(=O)O)=C3C | HIV-1 |  | gp120 |  | inhibition | 60 µg/mL | 82.6%
CCN1c2ncc(CCOc3ccc(C(=O)O)c4c3CCN(C(=O)OC(C)(C)C)C4)cc2C(=O)N(C)c2cccnc21 | HIV-1 | RT-K103N Y181C | Reverse transcriptase | nucleotide incorporation / radiometric | fold resistance |  | 1–10
Cc1ccc(Cn2cccc2/C=C/C(=O)CC(=O)C(=O)O)c(C)c1 | HIV-1 | Y501A | RNase H | substrate cleavage / fluorescence | IC50 |  | >100 µM
O=C(O)CCN1C(=O)/C(=C\c2ccc(-c3ccccc3[N+](=O)[O-])o2)SC1=S | HIV-1 |  | Rev:RRE | scintillation proximity / radiometric | IC50 |  | 40 µM
CC(C)(C)OC(=O)N[C@@H](CO)C(=O)N[C@@H](Cc1ccccc1)[C@@H](O)C(=O)NCC1CCCCC1 | HIV-1 |  | Protease |  | inhibition | 1000 µM | 17.1%
CCN1c2ncc(CCOc3ccc4cc(CC(=O)O)ccc4c3)cc2C(=O)N(C)c2cccnc21 | HIV-1 | RT-K103N Y181C | Reverse transcriptase | nucleotide incorporation / radiometric | fold resistance |  | >10
O=CC1OC(=O)c2cc(O)c(O)c(O)c2Oc2cc3c(c(O)c2O)-c2c(cc(O)c(O)c2O)C(=O)OCC2OC(OC(=O)c4cc(O)c(O)c(O)c4Oc4cc5c(c(O)c4O)-c4c(cc(O)c(O)c4O)C(=O)OC(C(O)COC5=O)C1OC(=O)c1cc(O)c(O)c(O)c1)C(OC(=O)c1cc(O)c(O)c(O)c1)C(OC(=O)c1cc(O)c(O)c(O)c1)C2OC3=O | HIV-1 |  | Capsid | antigen | IC50 |  | 3.1 µg/mL
O=C(O)CCc1ccc(-c2ccc(OCC(=O)O)cc2)cc1 | HIV-1 |  | gp41 | ELISA | IC50 |  | >100 µg/mL
CC(=O)Nc1ccc(-c2nc3ccc(-c4ccc5nc(-c6ccc(NC(C)=O)cc6)[nH]c5c4)cc3[nH]2)cc1 | HIV-1 |  | Rev:RRE | scintillation proximity / radiometric | IC50 |  | 4.6 µM
CC[C@@H](C)[C@H](NC(=O)[C@@H]1CCCN1C(=O)[C@@H](O)[C@H](Cc1ccccc1)NC(=O)[C@H](CC(N)=O)NC(=O)COc1ccccc1)C(=O)N[C@H](C(N)=O)C(C)C | HIV-1 |  | Protease |  | IC50 |  | <5 µM
COc1cccc(Cn2cccc2/C=C/C(=O)CC(=O)C(=O)O)c1 | HIV-1 | N474A | RNase H | substrate cleavage / fluorescence | IC50 |  | 100 µM
CC(=O)Nc1ccc(-c2nc3ccc(NC(C)=O)cc3[nH]2)cc1 | HIV-1 |  | Rev:RRE | scintillation proximity / radiometric | IC50 |  | >90 µM
N[C@@H](Cc1ccccc1)C(=O)N[C@@H](CO)C(=O)N[C@@H](Cc1ccccc1)[C@@H](O)C(=O)NCC1CCCCC1 | HIV-1 |  | Protease |  | inhibition | 1000 µM | 41.1%

2 of the rows above, restated:

compound | agent | mutations | protein | method | measure | tested at | result
O=CC1OC(=O)c2cc(O)c(O)c(O)c2Oc2cc3c(c(O)c2O)-c2c(cc(O)c(O)c2O)C(=O)OCC2OC(OC(=O)c4cc(O)c(O)c(O)c4Oc4cc5c(c(O)c4O)-c4c(cc(O)c(O)c4O)C(=O)OC(C(O)COC5=O)C1OC(=O)c1cc(O)c(O)c(O)c1)C(OC(=O)c1cc(O)c(O)c(O)c1)C(OC(=O)c1cc(O)c(O)c(O)c1)C2OC3=O | HIV-1 |  | Capsid | antigen | IC50 |  | 3.1 µg/mL
N[C@@H](Cc1ccccc1)C(=O)N[C@@H](CO)C(=O)N[C@@H](Cc1ccccc1)[C@@H](O)C(=O)NCC1CCCCC1 | HIV-1 |  | Protease |  | inhibition | 1000 µM | 41.1%